A mixed list of measured activities; the numbers were collected in NIAID ChemDB.

Shared fields: whole-cell or culture tests; species: Mycobacterium chelonae; endpoint: MIC

An empty or dashed field is not shown.

| compound | strain | read by | conditions | result |
|---|---|---|---|---|
| CCCCCCCC1SCC(=O)N1NC(=O)c1ccncc1 |  | agar |  | 50 µg/mL |
| CSc1nc(N)c2c(n1)NC(c1ccccc1)CC(c1ccc3c(c1)OCO3)=N2 | MNT1407 | MTT / broth dilution / absorbance | clinical isolate | >32 µg/mL |
| CC(C)CCC[C@@H](C)[C@H]1CC[C@H]2[C@@H]3CC[C@H]4C[C@H](NC(=O)NC(CCC(=O)O)(CCC(=O)O)CCC(=O)O)CC[C@]4(C)[C@H]3CC[C@]12C | EO-P-1 |  |  | 34 µg/mL |
| COc1ccccc1/C=C/C1=NN(C(=N)N)C(c2ccccc2OC)C1 |  | resazurin |  | 1.78 µM |
| CCCCCCCCCCCC1OC(c2ccncc2)=NN1C(C)=O |  | agar |  | 6 µg/mL |
| CCCCCCCCCCCCCCCCCCCCCOC(=O)NC(CCC(=O)O)(CCC(=O)O)CCC(=O)O | EO-P-1 |  |  | 5 µg/mL |
| C[C@H]1[C@H](C)CC[C@]2(C(=O)O)CC[C@]3(C)C(CC[C@@H]4[C@@]5(C)C[C@H](O)CC(C)(C)[C@@H]5CC[C@]43C)[C@H]12 |  | resazurin |  | 100 µg/mL |
| CCCCCCCCC(CCCCCCCC)OC(=O)NC(CCC(=O)O)(CCC(=O)O)CCC(=O)O | EO-P-1 |  |  | 71 µg/mL |
| C[C@@H]1CN(c2c(F)c(N)c3c(=O)c(C(=O)O)cn(C4CC4)c3c2F)C[C@H](C)N1 | NCTC 946 | broth dilution / visual reading |  | 1 µg/mL |
| Cc1c(C)c(C)[c-](C)c1C.N[C@H](C(=O)[O-])c1ccccc1.[Cl][Rh+2] | EO-P-1 |  |  | 15 µg/mL |
| COC(=O)/C=C/C(=O)c1ccc(C(C)(C)C)cc1 |  |  |  | 8 µg/mL |
| NNC(=O)c1ccncc1 | MNT1407 | MTT / broth dilution / absorbance | clinical isolate | >0.5 µg/mL |
| CC[C@H]1OC(=O)[C@H](C)[C@@H](O[C@H]2C[C@@](C)(OC)[C@@H](O)[C@H](C)O2)[C@H](C)[C@@H](O[C@@H]2O[C@H](C)C[C@H](N(C)C)[C@H]2O)[C@](C)(OC)C[C@@H](C)C(=O)[C@H](C)[C@@H](O)[C@]1(C)O | EO-P-1 |  |  | 12.5 µg/mL |
| COc1cc(/C=C/C2=NN(C(=N)N)C(c3cc(OC)c(OC)c(OC)c3)C2)cc(OC)c1OC |  | resazurin |  | 10.63 µM |
| CCCCCCCC(CCCCCCC)NC(=O)NC(CCC(=O)O)(CCC(=O)O)CCC(=O)O | EO-P-1 |  |  | 36 µg/mL |
| CSc1nc(N)c2c(n1)NC(c1ccc(C(F)(F)F)cc1)CC(c1ccc3c(c1)OCO3)=N2 | MNT1407 | MTT / broth dilution / absorbance | clinical isolate | >32 µg/mL |

A second listing of 2 rows from above:

compound,strain,read by,conditions,result
CC(C)CCC[C@@H](C)[C@H]1CC[C@H]2[C@@H]3CC[C@H]4C[C@H](NC(=O)NC(CCC(=O)O)(CCC(=O)O)CCC(=O)O)CC[C@]4(C)[C@H]3CC[C@]12C,EO-P-1,,,34 µg/mL
CC[C@H]1OC(=O)[C@H](C)[C@@H](O[C@H]2C[C@@](C)(OC)[C@@H](O)[C@H](C)O2)[C@H](C)[C@@H](O[C@@H]2O[C@H](C)C[C@H](N(C)C)[C@H]2O)[C@](C)(OC)C[C@@H](C)C(=O)[C@H](C)[C@@H](O)[C@]1(C)O,EO-P-1,,,12.5 µg/mL

Rows are shuffled and stem from different studies.